Assays:
[1] = molecular target: T1, Botulinum neurotoxin type A (Clostridium botulinum, UniProt P0DPI0); assay: Inhibition of Botulinum neurotoxins A (1-448) light chain using 66-mer peptide substrate measured after 10 mins by 66-mer LC-MS based assay
[2] = molecular target: T1, Botulinum neurotoxin type A; assay: Inhibition of Botulinum neurotoxins A light chain in cells by Western blotting analysis
[3] = molecular target: T1, Botulinum neurotoxin type A; assay: Inhibition of Botulinum neurotoxins A light chain using SNAPtideflP6 as substrate by SNAPtide assay
[4] = molecular target: T1, Botulinum neurotoxin type A; assay: Inhibition of Botulinum neurotoxins A (1-425) light chain using 66-mer peptide substrate measured after 10 mins by 66-mer LC-MS based assay
[5] = molecular target: T1, Botulinum neurotoxin type A; assay: Uncompetitive inhibition of Botulinum neurotoxins A light chain assessed as inhibition constant using SNAPtide as substrate incubated for 8 hrs by LC-MS analysis
[6] = molecular target: T1, Botulinum neurotoxin type A; assay: Competitive inhibition of Botulinum neurotoxins A light chain assessed as inhibition constant using SNAPtide as substrate incubated for 10 mins by 66-mer LC-MS analysis

Amino acid sequences for entries named in this document (tags omitted). Residues count along the entry.
UniProt P0DPI0, 2-448 limits assumed: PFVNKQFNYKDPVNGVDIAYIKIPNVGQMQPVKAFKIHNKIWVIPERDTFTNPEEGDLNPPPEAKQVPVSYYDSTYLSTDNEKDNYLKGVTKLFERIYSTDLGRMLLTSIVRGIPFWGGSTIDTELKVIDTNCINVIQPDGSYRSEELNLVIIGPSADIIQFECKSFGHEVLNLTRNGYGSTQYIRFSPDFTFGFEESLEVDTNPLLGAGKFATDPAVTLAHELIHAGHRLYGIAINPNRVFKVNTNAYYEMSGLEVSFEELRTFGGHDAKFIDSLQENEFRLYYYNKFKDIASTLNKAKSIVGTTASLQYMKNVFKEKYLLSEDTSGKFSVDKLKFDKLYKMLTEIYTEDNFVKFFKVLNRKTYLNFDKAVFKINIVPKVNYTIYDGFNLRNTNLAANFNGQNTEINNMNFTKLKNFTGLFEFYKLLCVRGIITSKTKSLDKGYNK

Q: With `O=C(Nc1cccc2ccccc12)c1ccc2c(c1)CC(=S)N2` as the compound, how does the IC50 [1] read?
A: Not_determined

Q: With `C=C=CC(=O)NCCCc1ccn2c(=O)cc(CNCc3ccc(-c4ccccc4)cc3)nc2c1O` as the compound, how does the IC50 [2] read?
A: 20.9 µM

Q: With `CC1(CCC(=O)Nc2ccc3c(c2)NC(=S)C3)N=N1` as the compound, how does the IC50 [3] read?
A: 14 µM

Q: For `O=c1ccnc2c(O)cccn12`, which IC50 [1] is on record?
A: Not_determined

Q: Which IC50 [1] does the source give for `O=C(Nc1ccc2c(c1)CC(=S)N2)c1ccc(Cl)cc1Cl` here?
A: Not_determined

Q: What does the source list for `O=C(Nc1ccc2c(c1)NC(=S)C2)c1ccccc1`?
A: IC50 [4]: 1.2 µM; IC50 [1]: Not_determined; IC50 [3]: 11.3 µM

Q: How did the IC50 [1] turn out when `O=C(Nc1cc2c(cc1Cl)NC(=S)C2)c1ccccc1` was run?
A: Not_determined

Q: For `O=C(CCc1ccccc1)Nc1ccc2c(c1)NC(=S)C2`, which IC50 [3] is on record?
A: 15.5 µM

Q: Which IC50 [3] does the source give for `CSc1cc2ccccc2[nH]1` here?
A: Not_active

Q: With `S=C1Cc2cc(Br)ccc2N1` as the compound, how does the Ki [5] read?
A: 2.9 µM

Q: And the Ki [6]?
A: 1.8 µM

Q: How did the IC50 [2] turn out when `N#C[Se]CCCCc1ccn2c(=O)cc(CNCc3ccc(-c4ccccc4)cc3)nc2c1O` was run?
A: 8.5 µM

Q: Which IC50 [1] does the source give for `O=C(c1ccc2c(c1)CC(=S)N2)N1CCc2ccccc21` here?
A: Not_determined

Q: Which IC50 [2] does the source give for `S=C1Cc2cc(Br)c(Br)cc2N1` here?
A: 32 µM

Q: How did the IC50 [2] turn out when `CC(=O)Sc1cc2cc(Br)c(Br)cc2[nH]1` was run?
A: 30.3 µM

From ChEMBL document CHEMBL6134870 (J Med Chem, 2025)
